{"source": "paper PMC8765430", "about": "“MdaB and NfrA, Two Novel Reductases Important in the Survival and Persistence of the Major Enteropathogen Campylobacter jejuni” (Journal of Bacteriology, 2022)", "target": "T1, RrpB (UniProt Q0P870)", "T1 sequence (looked up, limits assumed)": "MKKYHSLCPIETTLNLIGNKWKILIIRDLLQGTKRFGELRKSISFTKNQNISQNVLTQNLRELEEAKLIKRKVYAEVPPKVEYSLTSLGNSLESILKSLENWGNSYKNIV", "assay": "EMSA", "details": "specificity test; EMSA: Odyssey infrared EMSA kit, 50 nM probe, 20 ul, 6% gel at 4 C; recombinant protein; protein details: C-terminal His6 (pET21a); label: 5' IRDye 800", "note": "Construct, isoform or probe ends are uncertain for at least one entry. At least one verdict was read from the data and is not stated in words by the source. Protein sequences can lack the tags named with them."}
{"sequence": "TTAAAAAATATGTTATAATTTTAAAAAATAAGGATTTATAATGAAAAAATAT (double strand) [rrpBprobe (rrpB WT)]", "values": [{"measurement": "binding result", "result": "binds"}]}
